# PubChem BioAssay AID624099, ICCB-Longwood | 2012
# Screen: 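Human genes that papillomavirus E2 requires to repress the HPV18 LCR promoter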 (primary screen)
# System: human C33A cervical carcinoma cells (HPV-negative) stably expressing BPV1 E2 and an HPV18 LCR luciferase reporter
# Knock-down reagent: siRNA pool against human genes, 40 nM
# Time to read-out: 72 h
# Measurement: 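HPV18 LCR reporter light per well, converted to plate-wise z-scores that exclude control wells, and averaged over triplicate plates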
# Reading the numbers: mean z-score and z-score: higher = stronger reporter signal, weaker E2 silencing
# Rule for the call: 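Mean z ≥ 2 together with z ≥ 2 in two or more of the three replicates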
# The whole screen tested about 21,000 reagents; shown is an unselected part. 497 of all reagents (2.4%) count as active. 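Higher z means weaker E2 silencing; only reporter increases were scored, and knock-downs that hurt cell survival may mask genuine repressor factors.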 Unmarked entries are inactive. The numbers tell different reagents against one gene apart.
target,reagent,mean z-score,"z-score, replicate A","z-score, replicate B","z-score, replicate C"
PURG,1,-0.24,-0.23,-0.62,0.12
LOC399921 (retired record),1,1.53,1.99,1.19,1.4
TRAPPC2L,1,-0.59,-0.28,-0.5,-0.99
CYCS,1,-1.42,-1.57,-1.22,-1.47
OVCH1,1,-0.52,-0.64,-0.72,-0.2
GADD45B,1,0.93,0.85,0.79,1.16
OSGEPL1,1,0.26,0,0.47,0.31
PPP3CC,1,0.03,-0.02,-0.04,0.16
SATL1,1,-0.49,-0.81,-0.41,-0.24
LINC00652,1,1.05,0.67,0.78,1.71
FGFBP2,1,-0.22,-0.2,-0.13,-0.32
FGF11,1,0.07,0.21,-0.04,0.03
MTMR1,1,1.02,1.05,0.9,1.1
RTN4IP1,1,-1.06,-1.01,-0.96,-1.23
ADIPOQ,1,-0.13,-0.05,-0.18,-0.15
MID2,1,-0.28,-0.57,-0.05,-0.22
PRR5L,1,-0.15,0.28,0.07,-0.8
SNRPC,1,0.32,0.3,0.28,0.38
SLC16A1,1,0.86,0.84,0.87,0.88
INSAF (retired record),1,-0.09,0.09,-0.3,-0.05
BORCS5,1,-1.2,-1.29,-1.1,-1.2
MSLNL,1,-0.25,-0.28,-0.04,-0.42
ALDH9A1,1,-0.13,-0.39,-0.03,0.04
DDX47,1,1.85,2.15,1.77,1.64
DOCK8,1,-1.81,-1.87,-2.06,-1.49
WDR7,1,-1.49,-1.44,-1.61,-1.42
CKMT2,1,-0.85,-0.98,-0.88,-0.67
IGKC,1,-1.18,-1.07,-1.33,-1.15
CHRNA3,1,-1.2,-1.26,-1.27,-1.06
UBE2I,1,0.23,0.19,0.54,-0.05

The list goes on (8 carried over from the part before).
target,reagent,mean z-score,"z-score, replicate A","z-score, replicate B","z-score, replicate C"
ALDH9A1,1,-0.13,-0.39,-0.03,0.04
DDX47,1,1.85,2.15,1.77,1.64
DOCK8,1,-1.81,-1.87,-2.06,-1.49
WDR7,1,-1.49,-1.44,-1.61,-1.42
CKMT2,1,-0.85,-0.98,-0.88,-0.67
IGKC,1,-1.18,-1.07,-1.33,-1.15
CHRNA3,1,-1.2,-1.26,-1.27,-1.06
UBE2I,1,0.23,0.19,0.54,-0.05
CREBZF,1,-0.13,-0.11,-0.1,-0.18
AEN,1,-0.96,-1.02,-0.91,-0.95
AZIN2,1,1.07,0.79,1.11,1.32
ATRN,1,-0.27,-0.34,-0.03,-0.42
ZNF512,1,-0.04,0.21,0.05,-0.37
OR5J2,1,0.55,0.58,0.85,0.24
RCOR2,1,-4.26,-3.36,-4.3,-5.13
RANBP3,1,-1.18,-1.47,-0.76,-1.32
HIGD1A,1,1.17,2.04,0.56,0.91
ATP9B,1,-0.86,-0.91,-0.81,-0.84
RTL8A,1,1.41,1.37,1.29,1.56
DDX3X,1,-0.44,-0.22,-0.52,-0.59
GPATCH2,1,0.42,0.4,0.69,0.17
UQCRH,1,0.87,1.02,0.65,0.94
LINC00311,1,0.5,0.29,0.98,0.22
INTS11,1,0.62,0.65,0.55,0.64
ANKEF1,1,0.03,-0.24,0.04,0.29
PPP1R3A,1,-0.25,-0.44,-0.12,-0.19
AKAP12,1,-0.6,-0.92,-0.38,-0.49
STEAP3,1,-1.38,-1.23,-1.28,-1.64
TTC34,1,-0.44,-0.75,-0.1,-0.46
TTC34,2,1.21,1.29,1.3,1.03
EIF2B4,1,0.97,1.15,1.11,0.65
PGRMC2,1,-0.15,-0.13,-0.32,0.01
NBEAL1,1,1.31,1.6,1.36,0.96
NBEAL1,2,0.31,0.54,0.25,0.14
PSMC2,1,-0.97,-1.17,-0.78,-0.95
